This is an account of results in article PMC6163981, “Novel and Selective Rhipicephalus microplus Triosephosphate Isomerase Inhibitors with Acaricidal Activity” (Veterinary Sciences, 2018).

By UniProt entry, the sequences of proteins in these tests, tags left out. Residues count along the entry.
UniProt P00939, 2-249 limits assumed: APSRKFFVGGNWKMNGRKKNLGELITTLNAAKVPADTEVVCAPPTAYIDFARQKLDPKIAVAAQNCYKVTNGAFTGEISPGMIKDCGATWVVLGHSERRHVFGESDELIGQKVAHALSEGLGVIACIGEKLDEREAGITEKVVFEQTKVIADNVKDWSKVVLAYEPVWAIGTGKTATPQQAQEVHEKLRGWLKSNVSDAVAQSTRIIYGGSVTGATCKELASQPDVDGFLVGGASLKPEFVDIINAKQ

The test system of data set [1] is Rhipicephalus microplus fully engorged females. Put plainly: Adults immersion test. The settings on record: for Eclosion Rate / Eggs Total Weight: immersion; for Total Oviposition: immersion five minutes, ticks that completed oviposition/total.
Data set [2] relates to Rhipicephalus microplus partially engorged female ticks. Put plainly: Injection of inhibitor into partially engorged females during artificial capillary feeding.
Data set [3] can be described thus: Solubility in the conditions of the immersion test. The settings on record: aqueous solutions.
Data set [4] deals with human cells. The settings on record: cited from earlier work.
The subject of data set [5] is mammalian TIMs (rabbit and human). Put plainly: Mammalian TIM inhibition (rabbit and human, summarised). It counts as biochemical. Particulars: 100 µM.
For data set [6], the target named is Rabbit TIM (RbTIM) (Oryctolagus cuniculus, UniProt P00939). Put plainly: Rabbit TIM inhibition (selectivity). It counts as biochemical.
For data set [7], the system named is murine cells. The settings on record: 100 µM; cited from earlier work.

As a reminder, the % Inhibition is the drop in the measured response relative to a control, in per cent.

SMILES strings stand for the structures. Marks after values point to notes of the source that are not given here.

`O=[N+]([O-])c1cccc2no[n+]([O-])c12`: in data set [1] (500 ppm), the “Eclosion Rate” value was determined as 51% *, the “Eggs Total Weight” value stood at 113 ± 47 mg and the “Total Oviposition” value is recorded as 15/15. In data set [1] (2000 ppm), the “Eclosion Rate” value came out at 51% *, the “Eggs Total Weight” value came out at 123 ± 35 mg and the “Total Oviposition” value is 13/15. In data set [2], this compound displayed a survival of 0%. Besides, the “solubility in immersion test conditions” value in data set [3] is “low soluble”. In data set [4], the “toxicity for human cells” value is reported as “low toxicity”. Further, the “Mammalian Triosephosphate isomerase inhibition” value in data set [5] is reported as “did not affect”. In data set [6], the “% Inhibition at 100 µM RbTIM” value is 0%. In addition, in data set [7], the “toxic effects on murine cells” value is reported as “no toxic effects”.
